A mixed list of measured activities; the numbers were collected in NIAID ChemDB.

Common to all: whole-cell or culture tests; species: HIV-1; read by: ELISA; read-out: EC50

Conditions beyond the fields shown may differ between rows. ECn: concentration that inhibits the pathogen or its effect by n%.

{"structure": "COc1cc(C2OC[C@@H]3[C@@H](c4cc(OC)c(O)c(OC)c4)OC[C@H]23)cc(OC)c1O", "cells": "C8166", "strain or isolate": "IIIB", "result": "79.5 µM"}
{"structure": "COc1cnc(CS(=O)c2nc3ccccc3[nH]2)c(C)c1-n1cccc1", "cells": "HEK293T", "strain or isolate": "Clinical isolates", "result": "22 µM"}
{"structure": "COc1ccc2ccc3c(c2c1)OC1(CCN(Cc2ccc(C#N)cc2)CC1)NC3=O", "cells": "CEM", "result": "0.031 µM"}
{"structure": "COC(=O)c1cccc(-c2ccc(OCCCOc3cnc(CS(=O)c4nc5ccccc5[nH]4)c(C)c3)cc2)c1", "cells": "HEK293T", "strain or isolate": "Clinical isolates", "result": "3.5 µM"}
{"structure": "CCOC1c2c(cc(O)c3c(=O)cc(-c4ccc(O)cc4)oc23)OC(C)(C)C1O", "cells": "C8166", "strain or isolate": "IIIB", "result": "6.7 µM"}
{"structure": "CCN(CC)P(=O)(OC[C@H]1O[C@@H](n2cc(C)c(=O)[nH]c2=O)C[C@@H]1N=[N+]=[N-])N(CC)CC", "cells": "C8166", "strain or isolate": "RF", "result": "6 µM"}
{"structure": "Cc1cc(OCC(F)(F)F)cnc1CS(=O)c1nc2ccccc2[nH]1", "cells": "HEK293T", "strain or isolate": "Clinical isolates", "result": "25 µM"}
{"structure": "COC(=O)C[C@H](NP(=O)(N[C@@H](CC(=O)OC)C(=O)OC)OC[C@H]1O[C@@H](n2cc(C)c(=O)[nH]c2=O)C[C@@H]1N=[N+]=[N-])C(=O)OC", "cells": "C8166", "strain or isolate": "RF", "result": "0.9 µM"}
{"structure": "COc1cc(OC)c2oc(=O)ccc2c1", "cells": "C8166", "strain or isolate": "IIIB", "result": "102.9 µM"}
{"structure": "CCCCCCOP(=O)(N[C@H](C(=O)OC)C(C)C)OC[C@H]1O[C@@H](n2cc(C)c(=O)[nH]c2=O)C[C@@H]1N=[N+]=[N-]", "cells": "C8166", "strain or isolate": "RF", "result": "10 µM"}
{"structure": "COc1cc2oc3cccc(O)c3c(=O)c2c2c1OC(C)(C)C=C2", "cells": "C8166", "strain or isolate": "IIIB", "result": "183.4 µM"}
{"structure": "COc1cnc(CS(=O)c2nc3ccc(C)cc3[nH]2)c(C)c1OC", "cells": "HEK293T", "strain or isolate": "Clinical isolates", "result": "50 µM"}
{"structure": "Cc1cn([C@H]2C[C@H](N=[N+]=[N-])[C@@H](COP(=O)(N[C@@H](C)C(=O)OCc3ccccc3)OCC(Cl)(Cl)Cl)O2)c(=O)[nH]c1=O", "cells": "C8166", "strain or isolate": "RF", "result": "0.03 µM"}
{"structure": "CC1(C)OC2=CC(=O)C3C(=O)C=C(c4ccc(O)cc4)OC3C2=C(O)C1O", "cells": "C8166", "strain or isolate": "IIIB", "result": "0.9 µM"}
{"structure": "Cc1cc(COc2ccc(-c3cccc(-c4nn[nH]n4)c3)cc2)cnc1CS(=O)c1nc2ccccc2[nH]1", "cells": "HEK293T", "strain or isolate": "Clinical isolates", "result": "20 µM"}
{"structure": "COC(=O)[C@@H](NP(=O)(N[C@H](C(=O)OC)C(C)C)OC[C@H]1O[C@@H](n2cc(C)c(=O)[nH]c2=O)C[C@@H]1N=[N+]=[N-])C(C)C", "cells": "C8166", "strain or isolate": "RF", "result": "0.1 µM"}

Repeating the first 2 entries:

structure | cells | strain or isolate | result
COc1cc(C2OC[C@@H]3[C@@H](c4cc(OC)c(O)c(OC)c4)OC[C@H]23)cc(OC)c1O | C8166 | IIIB | 79.5 µM
COc1cnc(CS(=O)c2nc3ccccc3[nH]2)c(C)c1-n1cccc1 | HEK293T | Clinical isolates | 22 µM